Structures are written as SMILES. Several values for one entry are separate records, joined by “and”; a condition that tells them apart may be missing. Equal values may be shown once. Some of the results follow. Entries with a potency or affinity are not part of this list. Activity calls are given as the source filed them.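 How the source made its calls: active means compound inhibiting the enzyme by more than half at any dose during confirmatory dose-response retesting; inconclusive means strong single-dose inhibitors picked by rank but not retested; inactive means the rest.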

Protein sequences, listed by entry. Tags and fused reporters are not part of them. Lines headed by an entry give the natural chain unless they say otherwise; changes in a name come on top.
UniProt Q8IL11: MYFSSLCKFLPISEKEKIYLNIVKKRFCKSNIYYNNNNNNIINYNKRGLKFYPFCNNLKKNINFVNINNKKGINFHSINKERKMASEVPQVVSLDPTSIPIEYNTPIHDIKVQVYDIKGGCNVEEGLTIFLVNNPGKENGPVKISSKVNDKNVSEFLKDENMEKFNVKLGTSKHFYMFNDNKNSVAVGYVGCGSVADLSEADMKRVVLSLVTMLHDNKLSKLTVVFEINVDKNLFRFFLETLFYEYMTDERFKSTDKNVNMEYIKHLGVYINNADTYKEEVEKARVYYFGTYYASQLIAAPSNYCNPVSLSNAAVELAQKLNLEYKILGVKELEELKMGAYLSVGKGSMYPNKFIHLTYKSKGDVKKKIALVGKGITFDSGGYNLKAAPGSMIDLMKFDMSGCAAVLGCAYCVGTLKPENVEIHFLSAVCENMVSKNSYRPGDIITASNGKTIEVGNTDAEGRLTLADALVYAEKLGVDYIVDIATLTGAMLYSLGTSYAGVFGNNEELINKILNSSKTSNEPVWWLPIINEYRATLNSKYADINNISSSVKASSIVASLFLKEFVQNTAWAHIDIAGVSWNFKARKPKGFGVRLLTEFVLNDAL

The target in the test is Leucine aminopeptidase (Plasmodium falciparum (isolate 3D7)) (UniProt Q8IL11). Briefly: P. falciparum M17LAP inhibitors, primary screen, biochemical, fluorogenic H-Leu-NHMec substrate, 1536-well (AID 1619).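 Further: plate controls were full reaction with DMSO carrier for no effect and no enzyme background for full effect.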 The note with it: recombinant M17LAP, H-Leu-NHMec fluorogenic kinetic assay; at 30 µM; active compounds read high.
As usually defined, the inhibition is the drop in the measured response relative to a control, in per cent. For the compound `Cc1ccc(NP(=O)(Oc2ccccc2)Oc2ccccc2)nc1`, the inhibition is inactive: 2.21%.
Take `CCc1nc2c(n1)c1c(non1O)c1c2no[n+]1[O-]`: the inhibition was inactive: -58.3%.
`O=[N+]([O-])c1cc([N+](=O)[O-])c(CCNc2ccccc2)c([N+](=O)[O-])c1`: the inhibition is inactive: -5.8%.
In the case of `O=[N+]([O-])c1cccc2n[nH]nc12`, the inhibition is inactive: 11.7%.
The value for `CC(=O)N1C2C3N(C(C)=O)C1C1N(C(C)=O)C(C(N1C(C)=O)N3C(C)=O)N2C(C)=O` was inactive: -5.04%; that for `COc1ccc(C2=NCC(CBr)S2)cc1` (stereo not drawn) was inactive: 11.1%; that for `CC1CCN(C(=O)Oc2c(Cl)cc(Cl)c3cccnc23)CC1` was inactive: 4.36%.
Consider `CC(C)=N/N=C(\N)N[N+](=O)[O-]`, for which the inhibition was inactive: -6.62%.
The value for `CN(C)C(=O)OCCc1n(C)cc[n+]1C` was inactive: -1.46%; that for `CCN(/C(=N/P(=O)(N1CCOCC1)N1CCOCC1)N1CCOCC1)c1ccc(OC)cc1` was inactive: 1.7%.
The value for `Nc1ccc([As](=O)(O)c2ccc(N)cc2)cc1` was inactive: 8.33%.
As to `C[N+]1=C2C=CC=CC=C2SC12C([N+](=O)[O-])=CC([N+](=O)[O-])=C[C-]2[N+](=O)[O-]` (stereo not drawn), the inhibition was inactive: 18.9%.
Regarding `O=C(Nc1cc([As](=O)(O)O)ccc1O)c1ccccc1`, the inhibition was inactive: -2.18%.
`O=C(O)CNc1ccc([As](=O)(O)O)cc1`: the inhibition was inactive: 4.36%.
As to `O=[N+]([O-])c1cccc(NC2=NCC(CBr)S2)c1` (stereo not drawn), the inhibition is inactive: 0.14%.
In the case of `O=[N+]([O-])c1ncn(CCn2ncnc2[N+](=O)[O-])n1`, the inhibition was inactive: 14.2%.
Take `CC(C)(C)C(=O)NC(Sc1ccncn1)C(Cl)(Cl)Cl` (stereo not drawn): the inhibition is inactive: 2.33%.
Consider `CCOP(=O)(Nc1ccccc1)OCC`, for which the inhibition was inactive: 7.17% and inactive: 6.28%.
As to `Cc1cc(SC(NC(=O)c2ccc(F)cc2)C(Cl)(Cl)Cl)ncn1` (stereo not drawn), the inhibition is inactive: 10.6%.
Regarding `Cc1ccc(NP(=O)(Oc2ccccc2F)Oc2ccccc2F)nc1`, the inhibition is inactive: -7.51%.
For the compound `O=P(Nc1nc2ccc(Cl)cc2s1)(c1ccccc1)c1ccccc1`, the inhibition is inactive: -0.39%.
On to `O=C(O)c1ccccc1[As](=O)(O)O`, for which the inhibition is inactive: -0.07%.
On to `CC(=O)Nc1ccc([As](=O)(O)O)cc1`, for which the inhibition is inactive: -2.86%.
With `Nc1cccc2ccc([As](=O)(O)O)cc12`, the inhibition was inactive: -8.36%.
Turning to `CCN(N=Nc1nonc1N)c1nonc1N`, the inhibition is inactive: 20.2%.
For `Clc1ccc(Cl)c(NC2=NCC(CBr)S2)c1` (stereo not drawn), the inhibition was inactive: 8.16%.
For `CN1CCCC(OC(=O)C(c2ccccc2)c2ccccc2)C1` (stereo not drawn), the inhibition is inactive: 7.64%.
With `Cc1ccc(OP(=O)(Nc2nccs2)Oc2ccc(C)cc2)cc1`, the inhibition is inactive: -9.36%.
With `Cc1ccc(N/C(=N/P(=O)(N2CCOCC2)N2CCOCC2)N2CCOCC2)cc1`, the inhibition is inactive: -1.26%.
Regarding `NC(=O)c1cc([N+](=O)[O-])cc([N+](=O)[O-])c1N`, the inhibition is inactive: 6.44%.
Regarding `Oc1ccccc1CNc1ccccn1`, the inhibition is inactive: 9.61%.
As for `Cc1c2non([O-])c-2c(C)[n+](=O)[n+]1[O-]`, the inhibition was inactive: 11.8%.
Consider `O=C(NC(Sc1ccncn1)C(Cl)(Cl)Cl)c1ccccc1` (stereo not drawn), for which the inhibition was inactive: 9.7%.
The result for `CC(C)CC(=O)NC(Sc1ccc(Cl)cc1)C(Cl)(Cl)Cl` (stereo not drawn) reads inactive: -9.13%; that for `CC(C)(C)C(=O)NC(Sc1ccccc1)C(Cl)(Cl)Cl` (stereo not drawn), inactive: 3.86%; that for `O=P1(Nc2nc3ccc(Cl)cc3s2)COc2ccccc2O1` (stereo not drawn), inactive: -6.18%.
With `CCOc1ccc(C2=NCC(CBr)S2)cc1` (stereo not drawn), the inhibition is inactive: 16.5%.
With `CC(=O)Nc1ccc([As](=O)(O)O)c(O)c1`, the inhibition was inactive: 8.18%.
For `CC(=O)Nc1ccc(Oc2c([N+](=O)[O-])cc([N+](=O)[O-])cc2[N+](=O)[O-])cc1`, the inhibition is inactive: 12.4%.
As to `C[C@@H]1C=CCP(=O)(Oc2ccccc2)O1` (stereo partly drawn), the inhibition was inactive: 8.81%.
The value for `C[C@H]1OP(=O)(Oc2ccccc2)C[C@@H]2O[C@@H]21` (stereo partly drawn) was inactive: -7.35%; that for `c1ccc(-c2nn[nH]n2)c(-c2nn[nH]n2)c1` was inactive: 16.8%.
On to `CCOC(=O)NC(Sc1ccccc1)C(Cl)(Cl)Cl` (stereo not drawn), for which the inhibition was inactive: 5.43%.
Regarding `Cc1ccc(NP(=O)(Oc2cccc(C)c2)Oc2cccc(C)c2)nc1`, the inhibition is inactive: 19.1%.
For the compound `CCNC(=S)/N=C(\N)N[N+](=O)[O-]`, the inhibition was inactive: -0.65%.
Consider `O=C(NC1CCS(=O)(=O)C1)NP(=S)(Oc1ccccc1)Oc1ccccc1` (stereo not drawn), for which the inhibition was inactive: -0.8%.
The result for `Cc1ccccc1OP(=O)(Nc1ccccn1)Oc1ccccc1C` reads inactive: -1.02%; that for `CN(C)C(=O)Oc1noc2ccccc12`, inactive: 13.6%; that for `O=c1c2cc([N+](=O)[O-])ccc2[nH]c2c([N+](=O)[O-])cc([N+](=O)[O-])cc12`, inactive: 42%.
Take `CCC(=O)N1C2C3N(C(=O)CC)C1C1N(C(=O)CC)C(C(N1C(=O)CC)N3C(=O)CC)N2C(=O)CC`: the inhibition was inactive: 19.4%.
The value for `COC(=O)c1cc2c(s1)N=C(c1ccccc1)N(C)P2(=O)N1CCOCC1` (stereo not drawn) was inactive: -4.64%; that for `Cc1ccc(OP(=O)(Nc2ccccn2)Oc2ccc(C)cc2)cc1` was inactive: 3.94%; that for `CC(=O)NC(SC(=S)N(CC(C)C)CC(C)C)C(Cl)(Cl)Cl` (stereo not drawn) was inactive: 3.22%.
`O=P(Nc1nc2ccccc2s1)(c1ccccc1)c1ccccc1`: the inhibition was inactive: -2.02%.
The value for `C[C@H]1OP(=O)(Oc2ccccc2)[C@H](O)[C@H](O)[C@H]1N=[N+]=[N-]` (stereo partly drawn) was inactive: -3.28%.
In the case of `O=P(Nc1ccccn1)(c1ccc(Br)cc1)c1ccc(Br)cc1`, the inhibition was inactive: -3.04%.
Take `O=C(OC1CN2CCC1CC2)c1cccc(Cl)c1` (stereo not drawn): the inhibition is inactive: -5.93%.
Take `Nc1ccc([As](=O)(O)c2ccc([N+](=O)[O-])cc2)cc1`: the inhibition was inactive: -3.85%.
For the compound `C(Cc1nn[nH]n1)Cc1nn[nH]n1`, the inhibition is inactive: 14.7%.
Turning to `O=[As](O)(c1ccccc1)c1ccc(O)cc1`, the inhibition is inactive: 20.7%.
`O=[N+]([O-])c1ncn(CCn2cnc([N+](=O)[O-])n2)n1`: the inhibition was inactive: 6.4%.
The value for `CC(=O)NC(SC(=S)N(C)C)C(Cl)(Cl)Cl` (stereo not drawn) was inactive: -9.86%.
The result for `c1nnnn1CCn1cnnn1` reads inactive: -8.04%; that for `CC(C)C(=O)NC(Sc1ccccc1)C(Cl)(Cl)Cl` (stereo not drawn), inactive: -6.93%; that for `O=P(Nc1nccs1)(c1ccccc1)c1ccccc1`, inactive: -1.29%.
Take `Clc1n[nH]nc1-c1nn[nH][15n]1`: the inhibition is inactive: 16.1%.
Regarding `CC(C)(C)C(=O)NC(Sc1ncccn1)C(Cl)(Cl)Cl` (stereo not drawn), the inhibition is inactive: 3.64%.
Regarding `O=P1(Nc2ccccn2)COc2ccccc2OC1`, the inhibition was inactive: 5.76%.
As to `CCOP(=O)(Nc1ccc(C)cn1)OCC`, the inhibition was inactive: -3.67%.
Take `CC(C)/C=N\N=C(\N)N[N+](=O)[O-]`: the inhibition is inactive: -3.47%.
The value for `CN(C(=O)Cc1ccc(Cl)c(Cl)c1)[C@@H]1CCCC[C@H]1N1CCCC1` was inactive: 1.28%; that for `O=[As](O)(c1ccccc1Br)c1ccccc1Br` was inactive: -13.3%.
With `CN(C)C1(CNC(=O)c2ccc(S(C)(=O)=O)cc2)CCCCC1`, the inhibition is inactive: 3.43%.
Consider `O=C(/C=C/c1ccccc1)OC1CN2CCC1CC2` (stereo not drawn), for which the inhibition is inactive: -8.73%.
With `Cc1nn(-c2ccccc2)c2c1P(=O)(N1CCOCC1)N(C)C(c1ccccc1)=N2` (stereo not drawn), the inhibition is inactive: -2.87%.
Regarding `CC1CCC(C(C)C)C(OP(=O)(Nc2ccccn2)c2ccccc2)C1` (stereo not drawn), the inhibition is inactive: -3.2%.
`Nc1cccc([As](=O)(O)c2ccccc2)c1`: the inhibition was inactive: 1.54%.
As for `O=P1(Nc2ccc(Br)cn2)COc2ccccc2OC1`, the inhibition was inactive: 20%.
For `O=[As](O)(c1cccs1)c1cccs1`, the inhibition was inactive: 3.97%.
As for `Cc1ccc(OCC(=O)OC2CN3CCC2CC3)cc1` (stereo not drawn), the inhibition is inactive: -16.4%.
With `O=P1(Nc2ncccn2)COc2ccccc2OC1`, the inhibition is inactive: 13.8%.
For the compound `Nc1ccccc1[As](=O)(O)c1ccccc1`, the inhibition is inactive: -1.33%.
The result for `O=C(O)COc1ccc([As](=O)(O)O)cc1[N+](=O)[O-]` reads inactive: 2.09%; that for `CCOP1(=S)c2c(C)nn(CCC#N)c2N=C(c2ccccc2F)N1C` (stereo not drawn), inactive: 5.4%; that for `O=P(Nc1nccs1)(c1ccccc1)c1nc2ccccc2s1` (stereo not drawn), inactive: -7.53%.
With `O=P(Nc1nccs1)(Oc1ccccc1)Oc1ccccc1`, the inhibition is inactive: 1.11%.
The result for `CS(=O)(=O)c1cc([N+](=O)[O-])c2no[n+]([O-])c2c1` reads inactive: 31.9%; that for `CCOP1(=S)c2c(C)nn(CCC#N)c2N=C(c2ccc(F)cc2)N1C` (stereo not drawn), inactive: -0.21%; that for `CN(C(=O)Cc1ccccc1)[C@@H]1CC[C@]2(CCCO2)C[C@H]1N1CCCC1`, inactive: 1.56%.
`O=[N+]([O-])c1ccc2c(c1)nnn2O`: the inhibition is inactive: -8.02%.
As to `NC(=O)Nc1ccc([As](=O)(O)O)cc1`, the inhibition is inactive: -3.12%.
For `O=[As](O)(c1cccc(O)c1)c1cccc(O)c1`, the inhibition is inactive: 4.61%.
Consider `Cc1cccc(OCC(=O)OC2CN3CCC2CC3)c1` (stereo not drawn), for which the inhibition is inactive: -16%.
Take `O=C(OC1CN2CCC1CC2)c1ccc(Cl)cc1` (stereo not drawn): the inhibition is inactive: 5.29%.
On to `COc1cc(C(=O)NCC2(N3CCOCC3)CCCCC2)cc(Cl)c1OC(C)C`, for which the inhibition is inactive: -7.11%.
In the case of `O=[As](O)(O)c1cccnc1`, the inhibition is inactive: 0.96%.
The value for `COc1cc(C2NCCC3(OCCO3)C2(C)C)cc(OC)c1OC` (stereo not drawn) was inactive: 19.7%; that for `CCOP(=O)(Nc1cccc2ccccc12)OCC` was inactive: 4.44%.
As to `Nc1cccc2c([As](=O)(O)O)cccc12`, the inhibition was inactive: 9.06%.
As for `Cc1ccc(NCCc2c([N+](=O)[O-])cc([N+](=O)[O-])cc2[N+](=O)[O-])cc1`, the inhibition was inactive: 13.3%.
Regarding `CCCOP(=S)(Nc1nc(N)cc(=O)[nH]1)OCCC`, the inhibition is inactive: 0.1%.
On to `COc1ccc2nc(NP(=O)(c3ccccc3)c3ccccc3)sc2c1`, for which the inhibition was inactive: -2.4%.
Take `COc1cc(I)ccc1[As](=O)(O)O`: the inhibition is inactive: -3.03%.

Values taken from PubChem BioAssay AID1619 (SRMLSC, 2009).
